Results of unrelated studies side by side (data: NIAID ChemDB).

All rows: tests in culture; agent: Mycobacterium tuberculosis

Blank or dashed fields: not listed here. Percent inhibition refers to the dose given; in toxicity tests it is the harm to the cells. a–b is a range or a potency band. MIC bound: limit read from a one-dose screen. ECn is the concentration giving n% inhibition of infection, replication or growth. A number after MIC or MFC names an inhibition level or a share of isolates. Rows are shuffled and stem from different studies.

structure,strain or isolate,cell line,setting,tested at,method,read-out,value
CN(C)C(=S)C(N)=S,,,,,,MIC,250 µM
Cn1c(=O)c2c(ncn2CC[n+]2cccc(C(N)=O)c2)n(C)c1=O.[Cl-],H37Rv,,,,BACTEC,MIC bound,>12.5 µg/mL
CCCCCc1ccc(Oc2cnccc2N)c(O)c1,,,,,,MIC100,50 µg/mL
CC1(C)Nc2cccc3c(N=Nc4ccc(N=Nc5ccccc5)c5ccccc45)ccc(c23)N1,CS-R,,,,,MIC,2 µg/mL
CCCCCc1ccc(Oc2ccccc2C)c(O)c1,,,,,,MIC100,3.125 µg/mL
CCN=c1cc2n(-c3ccc(C(F)(F)F)cc3)c3ccccc3nc-2cc1Nc1ccc(C(F)(F)F)cc1,29,,multidrug-resistant,,,MIC,≤0.06 µg/mL
O=C(NC1CONC1=O)c1ccccc1C(F)(F)F,H37Rv,,,,,MIC,50 µg/mL
CCCCCc1ccc(Oc2ccc([N+](=O)[O-])cc2C)c(O)c1,,,,,,MIC100,6.25 µg/mL
Cc1ccc(-n2c(=O)oc3c(Cl)cc(Cl)cc3c2=O)cc1,CNCTC MY331/88,,,,,MIC,15.8 µM
C=CC(C)(O)CC/C=C(\C)CCC(O)C(C)(O)CCCC(C)(O)CCCC(C)(O)CCCC(C)(O)CCCC(C)(O)CCCC(C)(O)CCC=C(C)C,H37Rv,,,,,MIC,>128 µg/mL
Cc1ccc(-n2c(SCc3ccc(Cl)cc3Cl)nnc2-c2ccc(N=Cc3ccc(Cl)cc3)cc2)cc1,H37Rv,,,6.25 µg/mL,,inhibition,<50%
CO[C@H]1/C=C/O[C@@]2(C)Oc3c(C)c(O)c4c(O)c(c5c(c4c3C2=O)NC2(CCN(CC(C)C)CC2)N=5)=NC(=O)/C(C)=C\C=C\[C@H](C)[C@H](O)[C@@H](C)[C@@H](O)[C@@H](C)[C@H](OC(C)=O)[C@@H]1C,S-2M (susceptible),,,,,MIC,0.05 µg/mL
CCn1c(SCC(=O)N/N=C/c2cccc([N+](=O)[O-])c2)nnc1-c1ccco1,H37Rv,,,,,MIC,>6.25 µg/mL
Cc1onc(-c2ccccc2Cl)c1C1=N/C(=C\c2cc(Cl)cc(Cl)c2O)C(=O)O1,H37Rv,,,12.5 µg/mL,BACTEC,inhibition,-16%
O=c1oc2c(Br)cc(Br)cc2c(=O)n1-c1ccc(Cl)c(Cl)c1,CNCTC MY331/88,,,,,MIC,7.94 µM
COc1ccc(N=C2C(=Nc3ccc(OC)cc3)N(c3ccc(OC)cc3)C(=S)N2C(=O)c2ccc(Cl)cc2)cc1,H37Rv,,,12.5 µg/mL,BACTEC,inhibition,0%
NC(=S)N(Cc1cc2ccccc2nc1Cl)c1ccc(F)c(Cl)c1,H37Ra,,,,,MIC,50 µg/mL
Cc1c2cc[n+](Cc3ccc(I)cc3)cc2c(C)c2c1[nH]c1ccccc12,H37Rv,,,6.25 µg/mL,resazurin,inhibition,105%
Clc1ccc(CSc2nnc(-c3ccc(N=Cc4c(Cl)cccc4Cl)cc3)n2-c2ccccc2)c(Cl)c1,H37Rv,,,6.25 µg/mL,,inhibition,50–59%
CCCN(CCC)C(=S)C(N)=S,,,,,,MIC,31 µM
C=CC(C)(O)CC/C=C(\C)CC/C=C(\C)CCCC(C)(O)CCCC(C)(O)CCCC(C)(O)CCCC(C)(O)CCCC(C)(O)CCCC(C)(O)CCC=C(C)C,H37Rv,,,,,MIC,>128 µg/mL
CNC(=S)N(Cc1cc2ccccc2nc1Cl)c1ccc([N+](=O)[O-])cc1,H37Ra,,,,,MIC,200 µg/mL
O=C1C=C[C@@H](COC2OC(CO)C(O)C(O)C2O)O1,PAS-R,,,,,MIC,6.3 µg/mL
O=C(Nc1nccs1)c1cncc(Cl)n1,H37Rv,,,6.25 µg/mL,,inhibition,32%
Cc1ccc(-n2c(=O)oc3c(Br)cc(Br)cc3c2=O)cc1,CNCTC MY331/88,,,,,MIC,31.6 µM
CCOC(=O)c1ccc(N=NC2Sc3nc4ccccc4n3C2=O)cc1,H37Rv,,,,BACTEC,MIC bound,>12.5 µg/mL
CC(C)[C@@H](C)/C=C/[C@@H](C)[C@H]1CCC2C3=C(CC[C@@]21C)[C@@]1(C)CC[C@H](O)CC12OC2[C@@H]3O,H37Rv,,,,,MIC,45 µg/mL
COc1cccc(NC(=O)c2cncc(Cl)n2)c1,H37Rv,,,6.25 µg/mL,,inhibition,2%
O=c1oc2c(Br)cc(Br)cc2c(=O)n1-c1cccc([N+](=O)[O-])c1,CNCTC MY331/88,,,,,MIC,15.8 µM
Cc1ccc(-n2c(SCc3ccccc3)nnc2-c2ccc(N=Cc3ccc(O)cc3)cc2)cc1,H37Rv,,,,,EC50,>6.25 µg/mL
CO[C@H]1/C=C/O[C@@]2(C)Oc3c(C)c(O)c4c(O)c(c(/C=N/N5CCN(C)CC5)c(O)c4c3C2=O)NC(=O)/C(C)=C\C=C\[C@H](C)[C@H](O)[C@@H](C)[C@@H](O)[C@@H](C)[C@H](OC(C)=O)[C@@H]1C,H37Rv,,,,,MIC,0.04 µg/mL
CCOC(=O)CCCc1cc(=O)c2c(C)c3[nH]c4ccc(Cl)cc4c3c(C)c2[nH]1,H37Rv,,,6.25 µg/mL,resazurin,inhibition,89%
CCn1c(SCC(=O)N/N=C/C=C/c2ccc([N+](=O)[O-])o2)nnc1-c1ccco1,H37Rv,,,,,MIC,>6.25 µg/mL
CCN1CCN(c2ccc(Nc3ccnc4ccc5nn(C)nc5c34)cc2)CC1,H37Rv,,,,resazurin,MIC bound,>6.25 µg/mL
CO[C@H]1/C=C/O[C@@]2(C)Oc3c(C)c(NCCO)c4c(c3C2=O)C(O)C(/C=N/N2CCN(C)CC2)=C(NC(=O)/C(C)=C\C=C\[C@H](C)[C@H](O)[C@@H](C)[C@@H](O)[C@@H](C)[C@H](OC(C)=O)[C@@H]1C)C4=O,,,,,low oxygen,MIC90,>18.5 µM
O=C1CS(=O)(=O)[C@H](c2ccccn2)N1CCN1C(=O)CS(=O)(=O)[C@H]1c1ccccn1,H37Rv,,,,BACTEC,MIC bound,>12.5 µg/mL
CC(C)[C@@H](C)/C=C/[C@@H](C)[C@H]1CC[C@H]2C3=CC=C4C[C@@H](O)CC[C@]4(C)[C@H]3CC[C@]12C,H37Rv,,,,,MIC,>128 µg/mL
Cc1c2ccn3c(=O)c4ccccc4cc3c2c(C)c2c1[nH]c1ccccc12,H37Rv,,,6.25 µg/mL,resazurin,inhibition,29%
COc1cc(NC(=O)c2cnc(C(C)(C)C)c(Cl)n2)cc(OC)c1,H37Rv,,,6.25 µg/mL,,inhibition,0%
NC(=S)N(Cc1cc2ccccc2nc1Cl)c1ccc(Cl)c(Cl)c1,H37Ra,,,,,MIC,50 µg/mL
Cc1ccc(-n2c(SCc3ccc(Cl)cc3Cl)nnc2-c2ccc(N=Cc3ccc(O)cc3)cc2)cc1,H37Rv,,,6.25 µg/mL,,inhibition,50–59%
CO[C@H]1/C=C/O[C@@]2(C)Oc3c(C)c(OS(=O)(=O)c4ccc(C)cc4)c4c(c3C2=O)C(=O)C(/C=N/N2CCN(C)CC2)=C(NC(=O)/C(C)=C\C=C\[C@H](C)[C@H](O)[C@@H](C)[C@@H](O)[C@@H](C)[C@H](OC(C)=O)[C@@H]1C)C4=O,,,,,low oxygen,MIC90,4.8 µM
CC(C)(C)c1cnc(C(=O)Nc2ccccc2Br)cn1,H37Rv,,,6.25 µg/mL,,inhibition,22%
CO[C@H]1/C=C/O[C@@]2(C)Oc3c(c4c(O)cc(c5nn(CCO)c(c3C)c45)=NC(=O)/C(C)=C\C=C\[C@H](C)[C@H](O)[C@@H](C)[C@@H](O)[C@@H](C)[C@H](OC(C)=O)[C@@H]1C)C2=O,,,,,resazurin,MIC90,>5.4 µM
O=c1oc2c(Cl)cc(Cl)cc2c(=O)n1-c1ccc(Br)cc1,CNCTC MY331/88,,,,,MIC,15.8 µM
O=C(O)CCc1nc2ccc3ccccc3c2[nH]c1=O,H37Rv,,,,BACTEC,MIC bound,>12.5 µg/mL
COc1ccc(N(Cc2cc3ccccc3nc2Cl)C(N)=S)cc1,H37Ra,,,,,MIC,>400 µg/mL
CC[n+]1c(-c2ccccc2)c2cc(NCCCN)ccc2c2ccc(N)cc21,H37Rv,,,,,MIC,12.5 µg/mL
CCC1CN(c2c(F)cc3c(=O)c(C(=O)O)cn(C4CC4)c3c2OC)CCN1,Isolate TN5410,,,,,MIC,0.2 µg/mL
COc1cc(N=Nc2ccc(N=Nc3ccc(N=Nc4cc(S(=O)(=O)[O-])c5cccc(S(=O)(=O)[O-])c5c4)c4ccccc34)c3ccccc23)c(C)cc1N.O=S([O-])[O-].[Na+].[Na+].[Na+],H37Rv,,,,BACTEC,MIC,≥128 µg/mL
O=c1oc2c(Br)cc(Br)cc2c(=O)n1-c1ccccc1,CNCTC MY331/88,,,,,MIC,63.1 µM
CCCc1cc(=O)oc2c3c(c4c(c12)OC(C)(C)C=C4)O[C@@H](C)[C@H](C)[C@@H]3O,H37Rv,,,,BACTEC,MIC,<12.5 µg/mL
CCCCCc1ccc(Oc2ccccc2I)c(O)c1,,,,,,MIC100,25 µg/mL
CCOC(=O)C/C(=N\Nc1nc2ccccc2nc1-c1ccccc1)c1ccccc1,,,,,,MIC,100 µg/mL
CN(C)C1C(=O)C(C(=O)NCNCCCO)=C(O)C2(O)C(=O)C3=C(O)c4c(O)cccc4C(C)(O)C3CC12,H37Rv,,,12.5 µg/mL,BACTEC,inhibition,2%
CCn1c(SCC(=O)N/N=C/c2ccc([N+](=O)[O-])cc2)nnc1-c1ccco1,H37Rv,,,,,MIC,>6.25 µg/mL
NC(=S)C(=S)C(=O)C(=O)N1CCOCC1,,,,,,MIC,>1000 µM
NC(=O)N/N=C/c1ccc2oc3ccccc3c2c1,H37Rv,,,12.5 µg/mL,BACTEC,inhibition,27%
CCCCN(CCCC)C(=S)C(N)=S,,,,,,MIC,62 µM
NNC(=O)c1ccncc1,S-2M (susceptible),,,,,MIC,0.025 µg/mL
C=CC(C)(O)CC/C=C(\C)CC/C=C(\C)CCCC(C)(O)CCCC(C)(O)CCCC(C)(O)CCCC(C)(O)CCCC(C)(O)CCC=C(C)C,H37Rv,,,,,MIC,>128 µg/mL
Cc1c(F)c(N2CCNC(C)C2)cc2c1c(=O)c(C(=O)O)cn2C1CC1,,,,,,MIC50,0.78 µg/mL
c1ccc(Cc2nnc3c(-c4ccccc4)nc4ccccc4n23)cc1,,,,,,MIC,>100 µg/mL
CCOC(=O)CSc1nnc(-c2ccco2)n1CC,H37Rv,,,6.25 µg/mL,,inhibition,13%
Cc1ccc(N(Cc2cc3ccccc3nc2Cl)C(N)=S)cc1,H37Ra,,,,,MIC,200 µg/mL
CC(C)(C)c1ncc(C(=O)Nc2nccs2)nc1Cl,H37Rv,,,6.25 µg/mL,,inhibition,42%
Cc1ccc(NCc2cc3ccccc3nc2Cl)cc1,H37Ra,,,,,MIC,>400 µg/mL
CCNc1c(C)c2c3c4c1C(=O)C(=C(/C=N/N1CCN(C)CC1)C4O)NC(=O)/C(C)=C\C=C\[C@H](C)[C@H](O)[C@@H](C)[C@@H](O)[C@@H](C)[C@H](OC(C)=O)[C@H](C)[C@@H](OC)/C=C/O[C@@](C)(O2)C3=O,,,,,low oxygen,MIC90,>18.8 µM
NNC(=O)c1ccncc1,,,,,,MIC,0.04 µg/mL
CO[C@H]1/C=C/O[C@@]2(C)Oc3c(C)c(O)c4c(c3C2=O)C(=O)c2cnc(nc2C4=O)/C(C)=C\C=C\[C@H](C)[C@H](O)[C@@H](C)[C@@H](O)[C@@H](C)[C@H](OC(C)=O)[C@@H]1C,H37Rv,VERO,,,BACTEC,MIC,0.4 µg/mL
OO,H37Rv,,,500 µM,colony count,inhibition,17%
Nc1ccc(-c2nnc(SCc3ccc(Cl)cc3Cl)n2-c2ccccc2)cc1,H37Rv,,,,,EC50,<6.25 µg/mL
O=[N+]([O-])c1oc2ccc3ccccc3c2c1CCO,H37Rv,,,6.25 µg/mL,resazurin,inhibition,0%
O=C(NC1CONC1=O)c1ccc(C(F)(F)F)cc1,H37Rv,,,,,MIC,>50 µg/mL
O=C1C(=O)c2ccccc2C(O)=C1C(C1=C(O)c2ccccc2C(=O)C1=O)c1ccc(Cl)cc1,H37Rv,,,,BACTEC,MIC,≥12.8 µg/mL
O=C1NOCC1NC(=O)C(F)(F)F,12PI,,,,,MIC,25 µg/mL
O=C1OC2(O)c3ccccc3C(=O)N2N2CCCCC12,H37Rv,,,6.25 µg/mL,resazurin,inhibition,28%
CO[C@H]1/C=C/O[C@@]2(C)Oc3c(C)c(O)c4c(O)c(c5c(c4c3C2=O)NC2(CCN(CC(C)C)CC2)N=5)=NC(=O)/C(C)=C\C=C\[C@H](C)[C@H](O)[C@@H](C)[C@@H](O)[C@@H](C)[C@H](OC(C)=O)[C@@H]1C,H37Rv,,,,,MIC,0.03 µg/mL

4 of the rows above, restated:

structure | strain or isolate | cell line | setting | tested at | method | read-out | value
O=C1CS(=O)(=O)[C@H](c2ccccn2)N1CCN1C(=O)CS(=O)(=O)[C@H]1c1ccccn1 | H37Rv |  |  |  | BACTEC | MIC bound | >12.5 µg/mL
COc1cc(N=Nc2ccc(N=Nc3ccc(N=Nc4cc(S(=O)(=O)[O-])c5cccc(S(=O)(=O)[O-])c5c4)c4ccccc34)c3ccccc23)c(C)cc1N.O=S([O-])[O-].[Na+].[Na+].[Na+] | H37Rv |  |  |  | BACTEC | MIC | ≥128 µg/mL
CO[C@H]1/C=C/O[C@@]2(C)Oc3c(C)c(O)c4c(O)c(c5c(c4c3C2=O)NC2(CCN(CC(C)C)CC2)N=5)=NC(=O)/C(C)=C\C=C\[C@H](C)[C@H](O)[C@@H](C)[C@@H](O)[C@@H](C)[C@H](OC(C)=O)[C@@H]1C | H37Rv |  |  |  |  | MIC | 0.03 µg/mL
O=c1oc2c(Br)cc(Br)cc2c(=O)n1-c1ccc(Cl)c(Cl)c1 | CNCTC MY331/88 |  |  |  |  | MIC | 7.94 µM